Human monoclonal antibodies against the spike receptor-binding domain (heavy:light variable regions). IC50 against pseudoviruses bearing the spike of naturally observed variants; lower = stronger; >10 µg/ml means not reached at the top dose. No active / inactive call. The stated detection limit is 0.0005 µg/ml; values near or below 0.001 µg/ml lie at the floor of the assay.
B1: BD55-6080 (protein)
chain 1: QVQVVESGGGVVQPGRSLRLSCAASGFTFNTYGMHWVRQAPGKGLEWVAVISYDGSNKNYGDSVKGRFTISRDNSKNTVYLQMNSLRAEDTAVYYCATPLHDYSGYDLFDYYYGMDVWGQGTTVTVSS
chain 2: QSVLTQPPSASGTPGQRVTISCSGSSSNIGSDYVYWYQQLPGTAPKLLIYRNNHRPSGVPDRFSGSKSGTSASLAISGLRSEDEADYYCAAWDDSLSGWVFGGGTKLTVL
B2: BD55-6081 (protein)
chain 1: EVQLVESGGGLVKPGGSLRLSCAASGFTFSSSTVNWVRQAPGKGLEWVSSISSSSSYIYYADSVKGRFTISRDNAKNSLFLQLNNLRAEDTAVYYCARLMGSYPMDYYYNPMDVWGQGTTVTVSS
chain 2: DIQLTQSPSSLSASVGDRVTITCRASQSISSYLNWYQQKPGRAPKLLIYAASTLQSGVPSRFSGTGSGTDFTLTISSLQPEDFATYYCQQGFGIPRTFGQGTKLEIK
B3: BD55-6083 (protein)
chain 1: QVQLVQSGAEVKKPGASVKVSCKASGYTFTRNAIHWVRQAPGQRLEWMGWINADNGNTEYSQKFQGRVTITRDTSASTAYMELSSLRSEDTAVYYCARDAGRVYYGSGSYYMEYKEYYFDYWGQGTLVTVSS
chain 2: DIQMTQSPSTLSASVGDGVTITCRASQSITPWLAWYQQKPGKAPKLLIYKASSLESGVPSRFSGSGSGTEFTLTISSLQPDDFATYYCQQYNSSPYTFGQGTKLEIK
B4: BD55-6087 (protein)
chain 1: EVQLVESGGGLIQPGGSLRLSCAASDFTVGSNDMSWVRQAPGKGLECVSVIQGGDGTHYADSVKGRFTISRDTSKNTLYLQMNNLRDEDSAMYYCASLVAGTFDYWGQGTLVTVSS
chain 2: DIQMTQSPSSLSASVGDRVTITCRASQGISNSLAWYQQRPGKAPKILLYATSRLESGVPSRFSGSGSGTDYTLTISSLQPEDFATYHCQQYHGIPYTFGQGTKLEIK
B5: BD55-6088 (protein)
chain 1: QVPLVQSGAVVKKPGSSVKVSCKASGDTDTFISYAFSWVRQAPGQGLEWMGRVLPIHSLTNYAQKFQDRVTISADKSTTTVYMELKSLTSDDTAVYYCARRGPARGYSGYDEFDYGLDVWGQGTTVTVSS
chain 2: DIQMTQSPSSLSASVGDRVTITCQASQDVKKYLNWYEQKPGKAPKLLIYDASKLETGVTSRFSGTGSGTVFTFTISSLQPEDIATYFCQQYDSLPLTFGQGTRLDIK
B6: BD55-6095 (protein)
chain 1: QVHLVQSGAEVKKPGASMKVSCKASGYTFTSYAMHWVRQAPGQRLEWMGWINADTDKTEYSQKFQGRVTITRDTSANTVYMELSSLRSEDTAVYYCATFRDGYNWGPFDYWGQGTLVTVSS
chain 2: DIQMTQSPSTLSASVGDRVTITCRASQNIDSWLAWYQQKPGKAPKLLIYQASTLESGVPSRFSGSGSGTEFTLTISSLQPDDFATYNCQQYKSSPYTFGQGTKLEIK
B7: BD55-6105 (protein)
chain 1: QVQLVQSGAEVKKPGSSVKVSCKASGGTFSSNGVNWVRQAPGQGLEWMGRIIPIPGIGDFAQKFQGRVTITADKSTSTVYMELSSLRSEDTAVYYCARAPPRGYSGYDLLGNDAFDIWGQGTMVTVSS
chain 2: QSVLTQPPSVSGAPGQRVTISCTGSSSNIGAGYDVHWYQQLPGTAPKLLIYTNSNRPSGVPDRFSGSKSGTSASLAIAGLQSEDEADYYCQSYDSSLSGSYVFGTGTKVTVL
B8: BD55-6112 (protein)
chain 1: EVQLVESGGGLVKPGGSLRLSCAASGFIFSDYDMNWVRQAPGKGLEWLSSISGSTYFIHYTDSVRGRFTISRDNAKNSVYLQMSSLRVEDTAVYHCVRGGGPPYSDTHGFVDYWGQGTLVTVSS
chain 2: QSVLTQPPSASGTPGQRVTISCSGSNSNIGSNIVSWFQHLPGTAPKLLIYDNNRRPSGVPDRISGSKSGTSASLAISGLQSEDEADYYCATWDDSLNGGVFGGGTKLTVL
B9: BD55-6185 (protein)
chain 1: QITLKESGPTLVKPTQTLTLTCTFSGFSLNTRGVSVGWIRQPPGKALEWLALIYWDDDRRYSPSLKSRLTIIKDTSTNQVVLTMTNMDPVDTATYYCARAYDFYDSIGYYSGYYFDYWGQGTLVTVSS
chain 2: QSVLTQPPSVSGAPGQRVTISCTGSSSNNGAVFDVHWYQQLPGSAPKLVIYGNNNRPSGVPDRFSGSKSGTSASLAITGLQAEDEADYYCHSYDSSLSGPLFGGGTKLTVL
B10: BD55-6190 (protein)
chain 1: EVQLVESGGGLVQPGGSLRLSCVTSGFTFSNYAMNWVRQAPGKGLEYVSVIGSNGGRTYYANSMKDRFTISRDNSKNTLYLQMGSLKAEDMAVYYCARGPEEVTGYDFWTGYSDYWGQGTLVTVSS
chain 2: QSVLTQPPSVSGAPGQRVTISCTGSSSNIGAGYDVHWYQQFPGTAPKLLILGNTNRPSGVPDRFSGSKSDTSASLAITGLQAEDEAAYYCQSFDSSLSGFWVFGGGTKLTVL
B11: BD55-6192 (protein)
chain 1: QVQLLESGPGLVKPSETLSLTCSVSGGYISQYYWNWIRQTPGKGLEWIGHIFYSGSTNYIPSLESRVTISVDTSKNQFSLKLKSVTAADTAVYYCAREVQWLGPGAFDIWGQGKMVTVSS
chain 2: EMVLTQSPGTLSLSPGERATLSCRASQSVNSNYLAWYQQKPGQAPRLLISGASDRATGIPDRFSGSGSGTDFTLTISRVEPEDFAVYYCQQYGSSPLVTFGQGTKVEVK
B12: BD55-6195 (protein)
chain 1: QITLRESGPTLVKPTQTLTLTCTFSGFSLSTTEMGVGWIRQPPGKALEWLALIYWHDDKRFNPSLKSRLTITKDTSKNQVVLTMTNMDPVDTATYYCARWYFDISTGGVYYMDIWGNGITVTVSS
chain 2: DIVMTQTPLSSPVTLGQPASISCRSSQSLVHSDGNTFLSWLQQRPGQPPRLLIYKISNRVPGVPDRFSGSGAGTDFTLKISRVEAEDVGIYYCMQATQFPHEMYTFGQGTRLEIK

Experiments:
Experiment in all cases: pseudovirus neutralization IC50; higher = weaker neutralization
[1] = target: SARS-CoV-2 Omicron BA.1 spike pseudovirus
Experimental: (§1)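 Single-round VSV luciferase pseudovirus mixed with antibody dilutions for 1 h and put on Huh-7 cells for about a day; IC50 from the dose curve.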

[2] = target: SARS-CoV-2 Omicron BA.2 spike pseudovirus
Experimental: as §1

[3] = target: SARS-CoV-2 Omicron BA.2.75 spike pseudovirus
Experimental: as §1

[4] = target: SARS-CoV-2 Omicron BA.5 spike pseudovirus
Experimental: as §1

[5] = target: SARS-CoV-2 Omicron BQ.1.1 spike pseudovirus
Experimental: as §1

[6] = target: SARS-CoV-2 Omicron XBB spike pseudovirus
Experimental: as §1

[7] = target: SARS-CoV-2 early D614G spike pseudovirus
Experimental: as §1

Binder | pseudovirus neutralization IC50 [1] [µg/mL] | pseudovirus neutralization IC50 [2] [µg/mL] | pseudovirus neutralization IC50 [3] [µg/mL] | pseudovirus neutralization IC50 [4] [µg/mL] | pseudovirus neutralization IC50 [5] [µg/mL] | pseudovirus neutralization IC50 [6] [µg/mL] | pseudovirus neutralization IC50 [7] [µg/mL]
B1 | > 10 | > 10 | > 10 | > 10 | > 10 | > 10 | 0.0157
B2 | > 10 | > 10 | > 10 | > 10 | > 10 | > 10 | > 10
B3 | > 10 | > 10 | > 10 | > 10 | > 10 | > 10 | > 10
B4 | > 10 | > 10 | > 10 | > 10 | > 10 | > 10 | 0.44
B5 | > 10 | > 10 | > 10 | > 10 | > 10 | > 10 | 0.0784
B6 | > 10 | > 10 | > 10 | > 10 | > 10 | > 10 | 1.53
B7 | > 10 | > 10 | > 10 | > 10 | > 10 | > 10 | 0.116
B8 | 0.601 | > 10 | > 10 | > 10 | > 10 | > 10 | 1.86
B9 | > 10 | > 10 | > 10 | > 10 | > 10 | > 10 | > 10
B10 | 1.28 | > 10 | > 10 | > 10 | > 10 | > 10 | 0.0583
B11 | > 10 | > 10 | > 10 | > 10 | > 10 | > 10 | > 10
B12 | 4.09 | > 10 | > 10 | > 10 | > 10 | > 10 | 0.0147

From the supplement of paper PMC9931576
